Here are results for 16 molecules from patent US20150086555A1 (THERACLONE SCIENCES, published 2015).

Assay [1] addresses Hemagglutinin (HA) of influenza A virus A/Japan/305/57 H2N2, on whole virions (Influenza A virus A/Japan/305/1957 …).
Assay [2] has as its target Hemagglutinin (HA) of influenza A virus A/Solomon Islands/3/06 H1N1, on whole virions (Influenza A virus A/Solomon …).
The target of assay [3] is T1, Hemagglutinin (HA) of influenza A virus A/Wisconsin/67/05 H3N2, on whole virions (Influenza A virus A/Wisconsin/67/2005 …).
T1 construct: whole, on cells
Briefly: ELISA on coated inactivated whole virions; transfection supernatant, set 5. (In general: An ELISA detects its analyte on a solid surface through an enzyme-linked reagent.)

The target of assay [4] is T1, Hemagglutinin (HA) of influenza A virus …. The assay can be described thus: ELISA on coated inactivated whole virions; transfection supernatant, set 2.
For assay [5] the target is unchanged. Briefly: ELISA on coated inactivated whole virions; transfection supernatant, set 3.
The target is the same in assay [6]. The assay can be described thus: ELISA on coated inactivated whole virions; transfection supernatant, set 4.

B1: TCN-550 (5096_F06) (antibody, V domains shown)
VH: QVQLQESGPGLVKPSETLSLTCTVSGASINSHYWSWIRQPPGKGLEWIGYVYYSGSTTYNPSLKSRVTLSVDTSKNQFSLNLSSVTAADTAFYYCARHPYDVLTGSGDWFDPWGQGTLVTVSS
VL: SYVLTQAPSVSVAPGQTARITCGGNAIGSKKVHWYQHKAGQAPVLVVYDDTDRPSGIPERFSGSNSWSTATLTINRVEAGDEADYYCQVWDFTIDHVVFGGGTKLTVL
With B1, the “ELISA virus binding (OD450)” value was found to be 0.08 OD450 in assay [1], 0.13 OD450 in assay [2] and 3.62 OD450 in assay [3].

B2: TCN-563 (5237_B21) (antibody, V domains shown)
VH: QVQLAQSGAEVKRPGSSVKVSCTASGGIFRKNAISWVRQAPGQGLEWMGGIIAVFNTANYAQKFQGRVKITADESGNTAYMELSSLRSDDTAVYYCASHPKYFYGSGSYPDFWGQGTLVTVSS
VL: QSALTQPRSVSGSPGQSVTISCTGSSSDVGASNSVSWYQQHPGKAPKLVIYDVTERPSGVPHRFSGSKSGNTASLTVSGLQPEDEADYFCCAYGGKYLVVFGGGTKVTVL
Consider B2, for which the “ELISA virus binding (OD450)” value in assay [1] came out at 0.84 OD450; in assay [4], 0.09 OD450.

B3: TCN-547 (5092_F11) (antibody, V domains shown)
VH: QVQLQESGPGLVKPSQTLSLTCTVSGDSISSVDHYWSWIRQHPVKGLEWIGFMYYSASTYYNPSLKSRVTISTDTSKNQFSLRLSSVTAADTAVYYCARGTCAGDCSLHYYYYGLDVWGQGRTVTVSS
VL: DIQMTQSPSSLSASVGDRVTITCRASQSISSYLNWYQHKPGKAPKVLMYAVSILQSGVPSRFSGSGSGADFTLTISSLQPEDFATYYCQQSYSSPLTFGGGTKVEIK
In the case of B3, the “ELISA virus binding (OD450)” value in assay [1] was found to be 0.09 OD450; in assay [2], 0.09 OD450; in assay [3] it was 0.13 OD450.

B4: TCN-554 (5277_M05) (antibody, V domains shown)
VH: QVQLVQSGADLKKPGASVKVSCKASGYTFTDYYIHWVRQAPGQGLEWMGWINPESGDTKYAQKFQGRVTMTRDTSITTAYMELGRLRSDDTAVYYCARDVSTTWSWFAPWGQGTLVTVSS
VL: DIVMTQSPDSLAVSLGERATINCRSSQSIFHNSNNENYLAWYQQKPGQPPKLLIYWASTRESGVPDRFSGSGSGTDFTLTISSLQAEDVAVYFCQQYYNAPLTFGGGTKVEIK
B4: the “ELISA virus binding (OD450)” value in assay [1] stood at 0.11 OD450; in assay [2] it was 0.18 OD450; in assay [3] it was 3.4 OD450.

B5: TCN-533 (5256_A17a) (antibody, V domains shown)
VH: QVQLVQSGADVKKPGSSVTVSCKASGGSFSNYGINWVRQAPGQGLEWMGGIIPLINAPNYAPKFQGRVTITADMFSNIVSLQLTSLRTDDTAVYYCARRKMTTAIDYWGQGTLVTVSS
VL: QPVLTQPPSASASLGASVTLTCTLSSAYSNYKVDWYQQRPGKGPRFVMRVGTGGIVGSKGDGIPDRFSVLGSGLNRYLTIKNIQEEDESDYHCGADHGSGSNFVSPYVFGGGTKLTVL
As to B5, the “ELISA virus binding (OD450)” value in assay [1] worked out at 3.65 OD450; in assay [5], 0.22 OD450.

B6: TCN-532 (5262_H18) (antibody, V domains shown)
VH: QVQLQESGPGLVKPSETLSLTCTVSGGSVSSETYYWSWIRQPPGKGLEWIGYIYYIGNTDYRPSLKSRVTISLDTSKNQFSLKLSSVTAADTAVYYCARGAYYDSSGYPAFYIWGQGTMVTVSS
VL: QSVLTQPPSVSGAPGQRVTISCTGSSSNIGSDYDVHWYKQLPGTAPKLLIFGNSNRPSGVPDRFSGSKSGTSASLAITGLQAEDEADYYCQSYDSSLSGFHVFGSGTKVTVL
In the case of B6, the figures for the “ELISA virus binding (OD450)” value in assay [1], in assay [2] and in assay [5] were 0.08 OD450, 0.13 OD450 and 3.43 OD450, respectively.

B7: TCN-531 (5091_H13) (antibody, V domains shown)
VH: EVQLVESGGDLVQPGRSLKLSCTGSGFTFGDYGVTWVRQAPGKGLEWVGFIRTRPWGGTADTAASVKGRFTISRDDSKSLAYLQMNSLKTEDTAVYYCCRDAPPNVEVASMTNWYFDLWGRGTLVTVSS
VL: DIQLTQSPSSLSASVGDRVTITCRASQGILNCLAWYQQKPGKVPNLLMYAASTLQSGVPSRFSGSGFGTDFTLTISSLQPEDVATYYCQTYGGVSTFGGGTKVEIR
For B7, the entries for the “ELISA virus binding (OD450)” value in assay [1], in assay [2] and in assay [5] were 0.09 OD450, 0.1 OD450 and 3.59 OD450, respectively.

B8: TCN-527 (5086_C06) (antibody, V domains shown)
VH: QVQLQESGPGLVKPSETLSLNCAVSGGSISNYYWSWIRQPPGKGLEWIGYISYNGRPKYNPSLTSRVTISVDTSKDQFSLELRSVTAADTALYYCARETRFGELLSPYDAFEIWGQGTMVTVSS
VL: DIQMTQSPSSLSASVGDRVTMTCRASQNIRSYLNWYQQRPGTAPKLLIYAASTLHSGVPSRFSGGGSGTDFTLTINNLQPEDFASYYCQQSYDNPQTFGQGTKVEIK
Regarding B8, the results for the “ELISA virus binding (OD450)” value in assay [1] and in assay [4] were 3.63 OD450 and 0.14 OD450, respectively.

B9: TCN-529 (5297_H01) (antibody, V domains shown)
VH: QITLRESGPTLVKPTQTLTLTCTFSGFSLSTNGVNVGWIRQPPGKALEWLALIYWDDDKRYSPSLKRRLTITKDTSKNQVVLTLTNMDPVDTATYYCAHRPDFYGDFEYWGPGTLVTVSS
VL: QSALTQPASVSGSPGQSITISCTGSSSDIGGYNYVSWYQQHPGKAPKLMIYDVNNRPSGVSNRFSGSKSGNTASLTISGLQTDDEADYYCGSYTGSPHYVFGTGTKVTVL
Take B9: the “ELISA virus binding (OD450)” value in assay [1] is 0.1 OD450; in assay [2], 0.16 OD450; in assay [5], 3.65 OD450.

B10: TCN-528 (5087_P17) (antibody, V domains shown)
VH: QVQLVQSGSEVKKPGASVKVSCKASGYTFTNYDINWIRQAPGQGLEWMGWINPNSGTTGSAQRFQGRVTITVDTSITTVYMELSSLRSDDTAIYYCARGRELLRLQHFLTDSQSERRDCFDPWGQGTLVTVSS
VL: DIQMTQSPSSLSASVGDRVTITCRANQDIGIYLNWYQQNPGKVPKLLLHGASSLQGGVPSRFSASGSGTDFTLTIHSLQPEDLATYYCQQSRRLPYTFGQGTRVELK
On to B10, for which the entries for the “ELISA virus binding (OD450)” value in assay [1] and in assay [4] were 3.64 OD450 and 0.23 OD450, respectively.

B11: TCN-535 (5246_P19) (antibody, V domains shown)
VH: QVQLVQSGSEVKKPGTSVKVSCTASGSVFTNYGISWVRQAPGQGLEWMGGIIPLFGAAKYAQKFQGRVTITADESTKTVYMELSRLTSKDTAIYFCAKAPRVYEYYFDQWGQGTPVTVSS
VL: EIVLTQSPGTLSLSPGERATLSCRASQSVSSSQLAWYQQKPGQAPRLIIYGASTRATGIPDRFSGSGSGTDFTLTIGRLEPEDFAVFFCQQYSTSPPTFGQGTKVDFK
For the molecule B11, the figures for the “ELISA virus binding (OD450)” value in assay [1] and in assay [6] were 2.45 OD450 and 0.1 OD450, respectively.

B12: TCN-530 (5248_H10a) (antibody, V domains shown)
VH: QVQLVQSGAEVRKPGSSVKVSCKASGGPFMSYAIGWVRQAPGQGLEWMGGINPVFGRPHYAQKFQGRVTIATDDSTKTSYMELSSLTSEDTGMYYCASRYSRSSPGTFESWGQGTLVTVSS
VL: EIVMTQFPATLSVSPGERVTLSCRASQSVSNNLAWYQQKPGQPPRLLIYDASTRATGVPAKFSGTGSGTEFTLSISSLQSEDFAVYYCQQYHNWPPSYSFGLGTKLEIK
B12: the figures for the “ELISA virus binding (OD450)” value in assay [1] and in assay [5] were 3.43 OD450 and 0.21 OD450, respectively.

B13: TCN-548 (5092_P01) (antibody, V domains shown)
VH: QVQLQESGPGLVKPSETLSLTCTVSSGPMSDYYWSWIRQPPGKGLEWIGHVSVSHGGRTKSNPSVMSRVTISVETSKNQFSLKLTSVTAADTAVYYCARLNYYDRSGYHSPDGPSNNWFDPWGQGTLVTVSS
VL: DIVMTQSPDSLAVSLGERATINCKSSQSVLYSSNNKNYLAWYQQKPGQPPKLLIYWASTRESGVPDRISGSGSGADFTLTISSLQAEDVAVYYCQQYFATPRTFGQGTKVEIK
In the case of B13, the “ELISA virus binding (OD450)” value in assay [1] was found to be 0.09 OD450; in assay [2], 0.13 OD450; in assay [3], 3.63 OD450.

B14: TCN-549 (5092_P04) (antibody, V domains shown)
VH: QVQLVQSGAEVKKPGASVKVSCKASGYTFTGYYMHWVRQAPGQGLEWMGWINPNSGDTNYAQKFQGRVTMTRDTSITTAYMELSSLRSDDTAVYYCARDSPYSSSWSFFDYWGQGPLVTVSS
VL: DIVMTQSPDSLAVSLGERATINCKSSQSVLYSSNNKSHLAWYQQKPGQPPKLLIYWASTRESGVPDRFSGSGSGTDFTLIISSLQAEDVAVYYCQQYYFSPLTFGGGTKVEIK
Turning to B14, the “ELISA virus binding (OD450)” value in assay [1] is 0.08 OD450; in assay [2], 0.09 OD450; in assay [3] it was 0.46 OD450.

B15: TCN-526 (5084_C17) (antibody, V domains shown)
VH: EVLMVESGGGLVQPGGSVRLSCVASGFSFSSHWMTWVRQAPGKGLEWVANIEDDGGDKYYVDSVKGRFIISRDNAKNSVYLQMNSLRAEDTAVYFCARGSGSSDRSDYDPHYYYYLDVWGKGATVTVSS
VL: DIQLTQSPSSLSASVGDRVTITCRASQSISRYLNWYQQKPGKAPKLLLFAASTLLDGVPSRFSGSGSGTDFTLTISSLQPEDFATYYCQRNHSPSWTFGQGTRVEIK
For the molecule B15, the figures for the “ELISA virus binding (OD450)” value in assay [1], in assay [2] and in assay [4] were 0.07 OD450, 0.08 OD450 and 0.31 OD450, respectively.

B16: TCN-522 (3212_I12) (antibody, V domains shown)
VH: QVQLQQWGAGLLKPSETLSLTCTVSGGSLTDYSWNWIRQPPGKGLEWIGDTLHNGYTNYNPSLRGRVSISIDTSKNQVSLRLTSVTAADTALYYCARGSGGYGGFDYFGKLRTWDFWGQGTLVTVSS
VL: DIQLTQSPSSLSASVGDRVTITCRASQGIRNDLGWYQQKPGNAPKRLIFGASSLQSGVPSRFSGSGSGTEFTLTISSLQPEDFATYYCLQHNSYPYTFGQGTKLEIK
In the case of B16, the figures for the “ELISA virus binding (OD450)” value in assay [1] and in assay [4] were 0.61 OD450 and 0.07 OD450, respectively.
